The text below walks through data of doi:10.1101/541805.

The target of one experiment is rat Kv2.1-GFP (rat) (UniProt P15387).
Experiment [1] deals with rat Kv2.1 in Kv2.1-CHO cells (tetracycline-inducible, stably transfected) (rat) (UniProt P15387).
Experiment [2] has the same target. The source holds these as a separate data set.
Experiment [3] has the same target. The source holds these as a separate data set.
For experiment [4] the target is unchanged. This is another data set of the same source.
Experiment [5] has the same target. As to the kind of experiment: fluorescence dose response on live cells.

“GxTX-594 (guangxitoxin-1E Ser13Cys, Met35 norleucine, conjugated to Alexa 594) (from UniProt P84835 1-36) (peptide)” displayed a Pearson correlation coefficient (colocalization with GFP) with rat Kv2.1-GFP (rat) of 0.86. Also, in experiment [1], the labeling left (F/Finit norm) after a step from −80 mV to +40 mV amounted to 10% and the labeling left (F/Finit norm) after a step from −80 mV to −40 mV worked out at 70%. In experiment [2], this substance displayed a kΔF (rate of fluorescence change) at 0 mV of 0.13 s⁻¹, a kΔF (rate of fluorescence change) at 40 mV of 0.26 s⁻¹, a kΔF (rate of fluorescence change) at 80 mV of 0.53 s⁻¹ and a kΔF (rate of fluorescence change) at −40 mV of 0.022 s⁻¹. In experiment [3], this substance yielded a kΔF during the 40 mV step, basal surface, ROI 1 of 0.043 s⁻¹; a kΔF during the 40 mV step, basal surface, ROI 2 of 0.044 s⁻¹; a kΔF during the 40 mV step, basal surface, ROI 3 of 0.057 s⁻¹; a kΔF during the 40 mV step, basal surface, ROI 4 of 0.097 s⁻¹. In experiment [3], this substance returned a kΔF on return to −80 mV (labeling), basal surface, ROI 1 of 0.00043 s⁻¹; a kΔF on return to −80 mV (labeling), basal surface, ROI 2 of 0.00079 s⁻¹; a kΔF on return to −80 mV (labeling), basal surface, ROI 3 of 0.0028 s⁻¹; a kΔF on return to −80 mV (labeling), basal surface, ROI 4 of 0.0055 s⁻¹. In experiment [4], this substance gave a kΔF at 0 mV, 27°C of 0.028 s⁻¹ and a kΔF at 0 mV, 37°C of 0.075 s⁻¹. Further, the Kd in experiment [5] stood at 26.9 nM.
